{"source": "ChEMBL document CHEMBL1124552", "about": "(J Med Chem, 1989)", "key": {"[1]": {"experiment": "First order rate constant for Alkylation reaction by the compound (17 mM) at temperature 37 degree C with 1 M lutidine at pH 7.4 in the presence of 10 mol equiv of 2-mercaptoethanol"}, "[2]": {"experiment": "Second order rate constant for Alkylation reaction by the compound (17 mM) at temperature 47 degree C with 1 M lutidine at pH 7.4 in the presence of 10 mol equiv of 2-mercaptoethanol"}, "[3]": {"experiment": "First order rate constant for Alkylation reaction by the compound (50 mM) at temperature 38 degrees C with 1 M Tris at pH 7.4"}, "[4]": {"experiment": "Second order rate constant for Alkylation reaction by the compound (17 mM) at temperature 37 degree C with 1 M Tris at pH 7.4 in the presence of 10 mol equiv of 2-mercaptoethanol"}, "[5]": {"experiment": "First order rate constant for Alkylation reaction by the compound (12 mM) at temperature 20 degrees C with 1 M lutidine at pH 7.4 in the presence of 50 mol equiv of 2-mercaptoethanol"}, "[6]": {"experiment": "Second order rate constant for Alkylation reaction by the compound (12 mM) at temperature 20 degrees C with 1 M lutidine at pH 7.4 in the presence of 50 mol equiv of 2-mercaptoethanol"}, "[7]": {"experiment": "First order rate constant for Alkylation reaction by the compound (17 mM) at temperature 27 degree C with 1 M lutidine at pH 7.4 in the presence of 10 mol equiv of 2-mercaptoethanol"}, "[8]": {"experiment": "Pka value at 20 degrees C; ranges from 4.6-4.8"}, "[9]": {"experiment": "First order rate constant for Alkylation reaction by the compound (17 mM) at temperature 37 degree C with 1 M Tris at pH 7.4 in the presence of 10 mol equiv of 2-mercaptoethanol"}}}
{"compound": "NP(=O)(O)N(CCCl)CCCl", "values": [{"measurement": "K1", "setting": "[1]", "result": "35.4 10e-3 min-1"}, {"measurement": "K2", "setting": "[2]", "result": "44.3 10e-3 min-1"}, {"measurement": "K1", "setting": "[3]", "result": "37.1 10e-3 min-1"}, {"measurement": "K2", "setting": "[4]", "result": "32.7 10e-3 min-1"}, {"measurement": "K1", "setting": "[5]", "result": "2.16 10e-3 min-1"}, {"measurement": "K2", "setting": "[6]", "result": "2.67 10e-3 min-1"}, {"measurement": "K1", "setting": "[7]", "result": "6.79 10e-3 min-1"}, {"measurement": "Pka", "setting": "[8]", "result": 4.6}, {"measurement": "K1", "setting": "[9]", "result": "37.7 10e-3 min-1"}]}
